Pooled drug test results. Numbers come from NIAID ChemDB, via PubChem.

All rows: whole-cell or culture tests; organism: Mouse cytomegalovirus; method: plaque count; read-out: EC50

Blank or dashed fields: not listed here. ECn is the concentration giving n% inhibition of infection, replication or growth. Rows are shuffled and stem from different studies.

SMILES,cell line,strain or isolate,result
N/C(=N\O)c1cc(O)c(O)c(O)c1,,SMITH,7.12 µM
CCCCCCCCCCCCCCCCCCCCOCCCOP(=O)(O)CO[C@H](CO)Cn1ccc(N)nc1=O,MEF,SMITH,0.067 µM
CN(Cc1cnc2nc(N)nc(N)c2n1)c1ccc(C(=O)N[C@@H](CCC(=O)O)C(=O)O)cc1,HFF,,0.22 µM
OC[C@H]1O[C@@H](n2c(Br)nc3cc(Cl)c(Cl)cc32)[C@H](O)[C@@H]1O,HFF,,37 µM
Nc1nc2c(ncn2/C=C2/CC2(CO)CO)c(=O)[nH]1,MEF,SMITH,0.3 µM
CN(C)c1cccc2c(S(=O)(=O)Nc3ccc(NC(=O)C(C)(C)CO)cc3)cccc12,,Smith (resistant),28.3 µM
CCCCCOc1nc(N)nc2c1ncn2/C=C1/C[C@@H]1CO,MEF,,1.4 µM
CCOP(=O)(O)CCC(CO)OCn1cnc2c(=O)[nH]c(N)nc21,MRC-5,SMITH,17 µg/mL
CCCCCCCCCCCCCCCCCCOCCOP(=O)(O)CO[C@H](CO)Cn1ccc(N)nc1=O,MRC-5,,0.001 µM
Nc1nc2c(ncn2[C@@H]2C[C@H](CO)[C@H]2CO)c(=O)[nH]1,HFF,Smith (resistant),2.45 µM
NC(=S)c1cn(COCCO)c2ncnc(N)c12,HFF,SMITH,16 µM
Nc1nc2c(ncn2COC(CO)COP(=O)(O)O)c(=O)[nH]1,MRC-5,SMITH,15.9 µM
Nc1nc2c(ncn2COC(CO)CO)c(=O)[nH]1,HFF,,1.1 µg/mL
O=C(NCc1ccc(Cl)cc1)c1c[nH]c2c(F)cccc2c1=O,,SMITH,6.8 µM
CCCCCCCCCCCCCCCCOCCCOP(=O)(O)CO[C@H](CO)Cn1ccc(N)nc1=O,MRC-5,,0.0009 µM
Nc1ccn(C[C@H]2COP(=O)(O)CO2)c(=O)n1,MEF,,0.07 µM
Cn1cc(C(=O)NCc2ccc(Cl)cc2)c(=O)c2cc(CN3CCOCC3)ccc21,HFF,,1.4 µM
CCCCCCCCCCCCCCCCCOC[C@H](COP1(=O)CO[C@@H](Cn2ccc(N)nc2=O)CO1)OCc1ccccc1,MEF,SMITH,0.025 µM
O=C(NCc1ccc(Cl)cc1)c1c[nH]c2ccc(C#CCO)cc2c1=O,,SMITH,1.3 µM
CCCCCCCCCCCCCCCCOP(=O)(O)CO[C@H](CO)Cn1ccc(N)nc1=O,MEF,,0.02 µM
C=CCNc1nc(N)nc2c1ncn2/C=C1/C[C@@H]1CO,MEF,,0.3 µM
O=C(NCc1ccc(Cl)cc1)c1c[nH]c2ccc(CCCO)cc2c1=O,,,1.6 µM
CCCCCCCCCCCCCCCCCCOC[C@H](COP(=O)(O)CO[C@H](CO)Cn1ccc(N)nc1=O)OCc1ccccc1,MEF,SMITH,0.0045 µM
CC(=O)OCC(CO)OCn1cnc2c(=O)[nH]c(N)nc21,HFF,,3.4 µg/mL
O=C(O)P(=O)(O)O,MEF,,57 µg/mL
CCCCCCCC/C=C\CCCCCCCOCCOP1(=O)CO[C@@H](Cn2ccc(N)nc2=O)CO1,MEF,SMITH,0.001 µM
CCCCCCCC/C=C\CCCCCCCOCCCOP1(=O)CO[C@@H](Cn2ccc(N)nc2=O)CO1,MEF,,0.007 µM
Nc1nc2c(ncn2COC(CO)CO)c(=O)[nH]1,MRC-5,,1.4 µM
CCCCCCCC/C=C\CCCCCCCOCCCOP1(=O)CO[C@@H](Cn2ccc(N)nc2=O)CO1,MEF,SMITH,0.007 µM
CCCCCCCCCCCCCCCCCOC[C@H](COP1(=O)CO[C@@H](Cn2ccc(N)nc2=O)CO1)OCc1ccccc1,MEF,,0.03 µM
O=C(O)P(=O)(O)O,HFF,Smith (resistant),230 µM
C#CCNc1nc(N)nc2c1ncn2/C=C1/C[C@@H]1CO,MEF,,0.4 µM
CCCCCCCCCCCCOCCCOP1(=O)CO[C@@H](Cn2ccc(N)nc2=O)CO1,MEF,SMITH,0.013 µM
Nc1nc(F)c2ncn(/C=C3/CC3(CO)CO)c2n1,MEF,,8.7 µM
CCCCCCCCCCCCCCCCCCOCCOP1(=O)CO[C@@H](Cn2ccc(N)nc2=O)CO1,MEF,SMITH,0.003 µM
O[C@@H]1[C@H](O)[C@H](O)CO[C@H]1n1c(Br)nc2cc(Cl)c(Cl)cc21,HFF,,20 µM

For reference, 3 entries again:

{"SMILES": "CCCCCCCCCCCCCCCCCCOCCOP1(=O)CO[C@@H](Cn2ccc(N)nc2=O)CO1", "cell line": "MEF", "strain or isolate": "SMITH", "result": "0.003 µM"}
{"SMILES": "OC[C@H]1O[C@@H](n2c(Br)nc3cc(Cl)c(Cl)cc32)[C@H](O)[C@@H]1O", "cell line": "HFF", "result": "37 µM"}
{"SMILES": "CCCCCCCCCCCCCCCCCOC[C@H](COP1(=O)CO[C@@H](Cn2ccc(N)nc2=O)CO1)OCc1ccccc1", "cell line": "MEF", "result": "0.03 µM"}